In US12594289B2, “Potentiation of antibiotic effect” (The University of North Carolina at Chapel Hill, priority 2017, dated 2026):

Test system: S. aureus
Test: microbe, parasite or virus in culture
Format: cell-based, Staphylococcus aureus

In the case of `NC[C@H]1O[C@H](O[C@H]2[C@H](O)[C@@H](O[C@H]3O[C@H](CO)[C@@H](O)[C@H](N)[C@H]3O)[C@H](N)C[C@@H]2N)[C@H](N)C[C@@H]1O` [tobramycin], the “day by which high level resistance to tobramycin was selected for” value was at most 10 days and the MIC (Staphylococcus aureus, 624 h, read-out: tobramycin resistance level (MIC) reached) was 100 µg/mL (≈ 214 µM).

Converted amounts (≈) assume the structure as drawn.
